From PMC11879280, “Antimicrobial activity of peptoids against Metallo-β-lactamase-producing Klebsiella pneumoniae, Acinetobacter baumannii, Pseudomonas aeruginosa, and other WHO priority pathogens, including Candida auris” (Journal of Applied Microbiology, 2025) come the findings set out here.

Several values for one entry are separate records, joined by “and”; a condition that tells them apart may be missing. Identical values can stand only once. Square brackets hold non-standard residues; d marks the D form. Ends that are not written are not given here. Peptide text beside a SMILES is read from it. Nspe(4-Br) = C[C@H](NCC(=O)O)c1ccc(Br)cc1; N(tridecyl)Gly = CCCCCCCCCCCCCNCC(=O)O; Nspe = C[C@H](NCC(=O)O)c1ccccc1; NDecylGly = CCCCCCCCCCNCC(=O)O; Nlys = NCCCCNCC(=O)O

In data set [1] the test system is Enterobacteriaceae. The settings on record: for Selectivity ratio SRE: HD10 / geometric mean MIC; for Therapeutic index TIE: HD50 / geometric mean MIC.
Data set [2] has as its system C. auris strains. To be noted: for Selectivity ratio SRCA: HD10 / geometric mean MIC; for Therapeutic index TICA: HD50 / geometric mean MIC.
Data set [3] deals with MBL-producing bacteria. The settings on record: for Selectivity ratio SR MBL: HD10 / geometric mean MIC; for Therapeutic index TI MBL: HD50 / geometric mean MIC. The protocol:
(§1) Briefly, bacteria were suspended in cation-adjusted Mueller–Hinton broth (CAMHB; Oxoid, UK) for antibiotics, or MHB (Oxoid, UK) for peptidomimetics to obtain 5 × 10^5 colony forming unit (CFU) ml^−1. […] Positive controls contained only microbes, and blanks contained only media. Microbial suspensions (100 µl) were added to wells, plates wrapped, and incubated at 37°C, 120 rpm for 16–20 h. After incubation, suspensions were removed, log10 diluted, and plated on Trypticase Soya Agar with phosphatidylcholine and Tween 80 to determine minimum bactericidal or fungicidal concentration (MBC or MFC). […] Geometric mean MIC of the peptoids were calculated to evaluate the broad overview of antimicrobial activity across the pathogens.
The test was performed as per the manufacturer’s instructions. Briefly, the strips were applied to a lawn culture of bacteria maintained at 1.5 × 10^8 CFU ml^−1 on Mueller–Hinton agar (Oxoid, UK) and incubated for 20 h at 37°C.
(§2) The therapeutic indices (TIs) of the compounds were calculated with the use of following formula: […]

The test system of data set [4] is ESKAPEE pathogens (all bacteria). The settings on record: for Selectivity ratio SR All bacteria: HD10 / geometric mean MIC; for Therapeutic index TI All bacteria: HD50 / geometric mean MIC. The protocol:
as §1, §2

As to `C[C@@H](c1ccc(Br)cc1)N(CC(N)=O)C(=O)CN(C(=O)CN(CCCCN)C(=O)CN(C(=O)CN(C(=O)CNCCCCN)[C@@H](C)c1ccccc1)[C@@H](C)c1ccc(Br)cc1)[C@@H](C)c1ccccc1` [TM2] (H-[Nlys][Nspe][Nspe(4-Br)][Nlys][Nspe][Nspe(4-Br)]-NH2), in data set [1], the “Selectivity ratio SRE” value is given as 0.3 and the “Therapeutic index TIE” value is listed as 1.1. In data set [2], the “Selectivity ratio SRCA” value stood at 1.8 and the “Therapeutic index TICA” value is listed as 5.8. Moreover, in data set [3], the “Selectivity ratio SR MBL” value turned out to be 0.7 and the “Therapeutic index TI MBL” value worked out at 2.2. In addition, in data set [4], the “Selectivity ratio SR All bacteria” value is 0.8 and the “Therapeutic index TI All bacteria” value amounted to 2.5.
As to KNKRKRRRRRRGGRRRR [Mel4], in data set [1], the “Selectivity ratio SRE” value was over 1.6. Further, in data set [2], the “Selectivity ratio SRCA” value is over 11.6 and the “Therapeutic index TICA” value is recorded as over 11.6. In addition, the “Selectivity ratio SR MBL” value in data set [3] was over 1.6. For the same molecule, in data set [4], the “Selectivity ratio SR All bacteria” value is on record as over 1.7.
As to `C[C@@H](c1ccccc1)N(CC(N)=O)C(=O)CN(CCCCN)C(=O)CN(C(=O)CN(C(=O)CN(CCCCN)C(=O)CN(C(=O)CN(C(=O)CN(CCCCN)C(=O)CN(C(=O)CN(C(=O)CNCCCCN)[C@@H](C)c1ccccc1)[C@@H](C)c1ccccc1)[C@@H](C)c1ccccc1)[C@@H](C)c1ccccc1)[C@@H](C)c1ccccc1)[C@@H](C)c1ccccc1` [TM6] (H-[Nlys][Nspe][Nspe][Nlys][Nspe][Nspe][Nlys][Nspe][Nspe][Nlys][Nspe]-NH2), in data set [1], the “Selectivity ratio SRE” value was > 1 and 1.5; the “Therapeutic index TIE” value is listed as over 8.8. Further, in data set [2], the “Selectivity ratio SRCA” value is recorded as 5.5 and the “Therapeutic index TICA” value was over 32.4. In addition, in data set [4], the “Selectivity ratio SR All bacteria” value is reported as 2.5 and the “Therapeutic index TI All bacteria” value was over 14.5.
`CCCCCCCCCCCCCNCC(=O)N(CCCCN)CC(=O)N(CC(=O)N(CC(=O)N(CCCCN)CC(=O)N(CCCCN)CC(N)=O)[C@@H](C)c1ccccc1)[C@@H](C)c1ccccc1` [TM15] (H-[N(tridecyl)Gly][Nlys][Nspe][Nspe][Nlys][Nlys]-NH2): in data set [1], the “Selectivity ratio SRE” value is given as 0.5 and the “Therapeutic index TIE” value was 1.7. In data set [2], the “Selectivity ratio SRCA” value was found to be 6 and the “Therapeutic index TICA” value turned out to be 22.2. Moreover, in data set [3], the “Selectivity ratio SR MBL” value is 0.4 and the “Therapeutic index TI MBL” value worked out at 1.6. Moreover, in data set [4], the “Selectivity ratio SR All bacteria” value was found to be 0.7 and the “Therapeutic index TI All bacteria” value turned out to be 2.7.
For the molecule `C[C@@H](c1ccc(Br)cc1)N(CC(=O)N(CCCCN)CC(=O)N(CC(=O)N(CC(=O)N(CCCCN)CC(N)=O)[C@@H](C)c1ccc(Br)cc1)[C@@H](C)c1ccc(Br)cc1)C(=O)CN(C(=O)CNCCCCN)[C@@H](C)c1ccc(Br)cc1` [TM14] (H-[Nlys][Nspe(4-Br)][Nspe(4-Br)][Nlys][Nspe(4-Br)][Nspe(4-Br)][Nlys]-NH2), in data set [1], the “Selectivity ratio SRE” value amounted to 0.3 and the “Therapeutic index TIE” value is reported as 0.8. Moreover, in data set [2], the “Selectivity ratio SRCA” value is listed as 1.2 and the “Therapeutic index TICA” value is 3.1. For the same molecule, in data set [3], the “Selectivity ratio SR MBL” value turned out to be 0.4 and the “Therapeutic index TI MBL” value was determined as 1.0. In addition, in data set [4], the “Selectivity ratio SR All bacteria” value was 0.5 and the “Therapeutic index TI All bacteria” value is 1.2.
Take `C[C@@H](c1ccccc1)N(CC(N)=O)C(=O)CN(C(=O)CN(CCCCN)C(=O)CN(C(=O)CN(C(=O)CN(CCCCN)C(=O)CN(C(=O)CN(C(=O)CN(CCCCN)C(=O)CN(C(=O)CN(C(=O)CNCCCCN)[C@@H](C)c1ccccc1)[C@@H](C)c1ccccc1)[C@@H](C)c1ccccc1)[C@@H](C)c1ccccc1)[C@@H](C)c1ccccc1)[C@@H](C)c1ccccc1)[C@@H](C)c1ccccc1` [TM1] (H-[Nlys][Nspe][Nspe][Nlys][Nspe][Nspe][Nlys][Nspe][Nspe][Nlys][Nspe][Nspe]-NH2): in data set [1], the “Selectivity ratio SRE” value worked out at 0.3 and the “Therapeutic index TIE” value stood at 1.9. In addition, in data set [2], the “Selectivity ratio SRCA” value is recorded as 1.4 and the “Therapeutic index TICA” value is 5.7. Further, in data set [3], the “Selectivity ratio SR MBL” value is given as 0.7; the “Therapeutic index TI MBL” value is > 3 and 4.1. In addition, in data set [4], the “Selectivity ratio SR All bacteria” value was 0.6 and the “Therapeutic index TI All bacteria” value is on record as 3.4.
Consider “TLISWIKNKRKQRPRVSRRRRRRGGRRRR [Melimine]”, for which, in data set [1], the “Selectivity ratio SRE” value is listed as over 1.4 and the “Therapeutic index TIE” value is recorded as over 1.4. In addition, in data set [2], the “Selectivity ratio SRCA” value is listed as over 11.6 and the “Therapeutic index TICA” value is reported as over 11.6. For the same molecule, in data set [3], the “Selectivity ratio SR MBL” value is recorded as over 1.6 and the “Therapeutic index TI MBL” value is over 1.6. Further, in data set [4], the “Selectivity ratio SR All bacteria” value is reported as over 1.9 and the “Therapeutic index TI All bacteria” value is reported as over 1.9.
As for `CCCCCCCCCCNCC(=O)N(CCCCN)CC(=O)N(CC(=O)N(CC(=O)N(CCCCN)CC(=O)N(CC(=O)N(CC(N)=O)[C@@H](C)c1ccccc1)[C@@H](C)c1ccccc1)[C@@H](C)c1ccccc1)[C@@H](C)c1ccccc1` [TM8] (H-[NDecylGly][Nlys][Nspe][Nspe][Nlys][Nspe][Nspe]-NH2), in data set [1], the “Selectivity ratio SRE” value was > 1 and 0.7; the “Therapeutic index TIE” value is reported as 2.5. In data set [2], the “Selectivity ratio SRCA” value turned out to be 1.5 and the “Therapeutic index TICA” value is recorded as 4.9. Also, the “Therapeutic index TI MBL” value in data set [3] was > 3 and 3.5. Also, in data set [4], the “Selectivity ratio SR All bacteria” value worked out at 1.1 and the “Therapeutic index TI All bacteria” value came out at 3.7.
Turning to `C[C@@H](c1ccc(Br)cc1)N(CC(=O)N(CCCCN)CC(=O)N(CC(=O)N(CC(=O)N(CCCCN)CC(N)=O)[C@@H](C)c1ccc(Br)cc1)[C@@H](C)c1ccccc1)C(=O)CN(C(=O)CNCCCCN)[C@@H](C)c1ccccc1` [TM12] (H-[Nlys][Nspe][Nspe(4-Br)][Nlys][Nspe][Nspe(4-Br)][Nlys]-NH2), in data set [1], the “Selectivity ratio SRE” value was > 1 and 1.7; the “Therapeutic index TIE” value is listed as over 5.4. Besides, in data set [2], the “Selectivity ratio SRCA” value was 5.1 and the “Therapeutic index TICA” value is given as over 16.4. The “Therapeutic index TI MBL” value in data set [3] is > 3 and >4.1. In data set [4], the “Selectivity ratio SR All bacteria” value is 2.6 and the “Therapeutic index TI All bacteria” value was over 8.2.
